From US9289381B2, “Stabilization and storage of biological pharmaceutical compositions” (The University of North Carolina at Charlotte, priority 2009, dated 2016) come the findings set out here.

In this test the test system is HT-2 cells. The note with it: rIL-2 10 or 100 U/ml.

Consider “IL-2: Interleukin-2, a single 133 amino acid polypeptide of molecular weight 15.5 kDa; lyophilized IL-2, human (GenScript) in Example 5”, for which the HT-2 cell proliferation result is “increased in a dose dependant manner”.
